{
  "source": "paper PMC5329690",
  "about": "(International Journal of Peptides, 2017)",
  "assay": "general procedure: Fmoc solid-phase peptide synthesis; Fmoc-Rink-amide ChemMatrix, 0.47 mmol/g; HBTU/DIEA",
  "details": "whole synthesis",
  "data": [
    {"substance": "Bodi Fluor-O2Oc-Tat(48-60)-O2Oc-Asp(COOH)-amide", "values": [
      {"measurement": "final HPLC purity", "setting": "analytical RP-HPLC, UV 220 nm, scale of the general procedure 50 μmoL", "value": ">95", "unit": "%"}
    ]},
    {"substance": "BodiFluor-O2Oc-Tat(48-60)-O2Oc-Asp(paromomycin)-amide", "values": [
      {"measurement": "isolated mass", "value": 15.5, "unit": "mg"},
      {"measurement": "isolated yield", "setting": "scale of the general procedure 50 μmoL", "value": 10, "unit": "% yield"}
    ]}
  ]
}
